A mixed list of measured activities; the numbers were collected in NIAID ChemDB.

Shared fields: cytotoxicity tests; cells: CEM; measure: CC50

CCn is the concentration with n% toxicity to the cells. Conditions beyond the fields shown may differ between rows.

structure,value
CC(n1ccc(N)nc1=O)C1(COCP(=O)(O)O)CC1,>100 µM
Cc1ccc(Nc2nc(NS(=O)(=O)c3cc(C(=O)Nc4ccc(Cl)cc4)c(Cl)cc3S)n[nH]2)cc1,>200 µM
Cc1cn([C@H]2C[C@H](N=[N+]=[N-])[C@@H](CO)O2)c(=O)[nH]c1=O,≥100 µM
Cc1cc(S(=O)(=O)NC2=NCCCN2)c(S)cc1Cl,67.9 µM
N#Cc1c(N)nc(N)nc1OCCOCP(=O)(O)O,≥300 µM
Cc1cc(S(=O)(=O)NC2=NCCCN2)c(S)cc1Cl,103 µM
CO[C@H]1N([C@H]2C=C[C@@H](CO)O2)C(=O)NC(=O)[C@]1(C)Br,>128 µM
COc1ccc(/C=C2/C(=O)N(C(=O)c3ccc(Cl)cc3)N=C2C)cc1OC,>35 µM
COC(=O)[C@@H](NC(=O)[C@@H](NC(=O)CC[C@H](O)[C@H](Cc1ccccc1)NC(=O)[C@H](C)NC(=O)OCc1ccccc1)C(C)C)C(C)C,>100 µM
C=C(COCP(=O)(O)O)Cn1cnc2c(=O)[nH]c(N)nc21,≥250 µM
CC(COCP(=O)(O)O)n1cnc2c(=O)[nH]c(N)nc21,>100 µg/mL
CCCCCCCCCCCCCCCCCCOC[C@@H](O)COP(=O)(O)CC(=O)O,68 µM
Cc1cn([C@H]2C[C@H](F)[C@@H](CO)O2)c(=O)[nH]c1=O,117 µM
Cc1cccc2c1OP(=O)(OC[C@@H]1C[C@H](F)[C@H](n3cnc4c(=O)[nH]cnc43)O1)OC2,91 µM
Cc1cn([C@H]2C[C@H](F)[C@@H]([C@@H](C)O)O2)c(=O)[nH]c1=O,>100 µg/mL
CN[C@@H]1[C@H](O[C@@H]2OC[C@@H](O)[C@H](O)[C@H]2O)[C@@H](O)[C@H](O[C@H]2c3cc(C)c(C(=O)N[C@H](C)C(=O)O)c(O)c3-c3c(cc4c(c3O)C(=O)c3cc(OC)cc(O)c3C4=O)[C@@H]2O)O[C@@H]1C,>120 µM
Cc1cn([C@@H]2O[C@H](CO)[C@@H](N=[N+]=[N-])[C@@H]2F)c(=O)[nH]c1=O,2.6 µg/mL
Nc1nc2c(ncn2[C@H]2C=C[C@@H](CO)C2)c(=O)[nH]1,190 µM
Nc1nc2c(ncn2CCCOCP(=O)(O)O)c(=O)[nH]1,>100 µg/mL
COc1ccc2c(c1)COP(=O)(OC[C@@H]1C=C[C@H](n3cnc4c(NC5CC5)nc(N)nc43)C1)O2,141 µM
CC(n1cnc2c(=O)[nH]c(N)nc21)C1(COCP(=O)(O)O)CC1,98 µM
CCOC(=O)CCc1ccccc1O[P@@](=O)(N[C@@H](C)C(=O)OC(C)C)OC[C@H]1O[C@@H](n2cnc3c(N)nc(N)nc32)[C@](C)(O)[C@@H]1O,>100 µM
C1CNCCNCCCN(CCCN2CCCNCCNCCCNCC2)CCNC1,>1243 µM
Cc1c(-c2cnccn2)ssc1=S,>200 µM
Cc1cn([C@@H]2O[C@H](CO[Si](C)(C)C(C)(C)C)C3(OS(=O)(=O)C=C3N)[C@H]2O[Si](C)(C)C(C)(C)C)c(=O)n(C)c1=O,≥100 µM
CC1=NN(c2nc(N)nc(CSc3cc(Cl)c(C)cc3S(N)(=O)=O)n2)C(C)(C)C1,75.3 µM
CC1(C)S[C@H]([C@H](NC(=O)Cc2ccccc2)C(=O)NCc2ccccc2)N[C@H]1C(=O)NCCNC(=O)[C@@H]1N[C@@H]([C@H](NC(=O)Cc2ccccc2)C(=O)NCc2ccccc2)SC1(C)C,>100 µM
CCCCCCCCCCCC(=O)NCC(COP(=O)([O-])OCCC[N+](C)(C)C)OCCCCCCCC,54.3 µM
N#C/C(=C\c1cc(O)c(O)c(O)c1)C(=O)NCCCCNC(=O)/C(C#N)=C/c1cc(O)c(O)c(O)c1,49.8 µM
COC(=O)[C@@H](C)NP(=O)(OC[C@@H]1C=C[C@H](n2cc(C)c(=O)[nH]c2=O)O1)Oc1ccccc1,>250 µM
Cc1cn([C@H]2C[C@H](N=[N+]=[N-])[C@@H](CO)O2)c(=O)[nH]c1=O,>0.008 µM
Cc1cc(S(=O)(=O)Nc2nnc3cnc4ccccc4n23)c(S)cc1Cl,>200 µM
O=C(NN1C(=O)C(Cl)C1c1ccc([N+](=O)[O-])cc1)c1ccccc1O,>10 µM
Nc1ncnc2c1ncn2[C@@H]1C=C[C@H](CO)O1,37 µM
Cc1cn([C@@H]2O[C@H](CO)C=C2F)c(=O)[nH]c1=O,9.7 µg/mL
O=c1[nH]c(=O)n([C@H]2C[C@H](F)[C@@H](CO)O2)cc1Br,>500 µM
Cc1cn([C@H]2C[C@H](N=[N+]=[N-])[C@@H](CN3C(=O)c4c(Br)c(Br)c(Br)c(Br)c4C3=O)O2)c(=O)[nH]c1=O,56 µM
CCN(CCO)CCCC(C)Nc1ccnc2cc(Cl)ccc12,>1000 µg/mL
C=C(COCP(=O)(O)O)C(C)n1cnc2c(N)ncnc21,>100 µM
Nc1ncn([C@H]2C[C@H](O)[C@@H](CO)O2)c(=O)n1,>1 µM
CCCCCCCCCCCCOC(CNC(=O)CCCCCCCCC)COP(=O)([O-])OCC[N+](C)(C)C,38.9 µM
CCC(NC(=O)C1CCC1C(=O)[C@@H](NC(=O)[C@@H](NC(=O)c1cnccn1)C1CCCCC1)C(C)(C)C)C(=O)C(=O)NC1CC1,>100 µM
CCCCCCCCCCCCCCCCCC(=O)NCC(COP(=O)([O-])OCC[N+](C)(C)C)OCCCCCCCC,36 µM
Cc1cn([C@H]2C[C@H](F)[C@@H](C(C)O)O2)c(=O)[nH]c1=O,>100 µg/mL
Nc1nc2c(ncn2COCCO)c(=O)[nH]1,1020 µM
C[C@]1(Br)C(=O)NC(=O)N([C@H]2C=C[C@@H](CO)O2)[C@@H]1O,>200 µM
CC(C)OC(=O)CCc1ccccc1OP(=O)(N[C@@H](C)C(=O)OC(C)C)OC[C@H]1O[C@@H](n2cnc3c(N)nc(N)nc32)[C@](C)(O)[C@@H]1O,>100 µM
CO[C@H]1N([C@H]2C=C[C@@H](CO)O2)C(=O)NC(=O)[C@]1(C)Cl,>1030 µM
CCOC(=O)[C@H](C)N[P@@](=O)(OC[C@H]1O[C@@H](n2cnc3c(N)nc(N)nc32)[C@](C)(O)[C@@H]1O)Oc1ccccc1CCC(=O)OC(C)C,>100 µM
CCOCn1c([Se]c2ccccc2)c(F)c(=O)[nH]c1=O,28.9 µM
C[C@H](NP(=O)(N[C@@H](C)C(=O)OCc1ccccc1)OC[C@@H]1O[C@H](n2ccc(N)nc2=O)CS1)C(=O)OCc1ccccc1,>250 µM
CCCCCCCCCC(=O)NCC(COP(=O)([O-])OCC[N+](C)(C)C)OCCCCCCCC,>100 µM
N#C/C(=C\c1ccc(O)c(O)c1)C(=O)NCCCCCCNC(=O)/C(C#N)=C/c1ccc(O)c(O)c1,>200 µM
C[C@H](Cn1cnc2c(N)ncnc21)OCP(=O)(O)O,≥500 µM
Cc1cccc2c1OP(=O)(OC[C@@H]1C[C@H](F)[C@H](n3cnc4c(=O)[nH]cnc43)O1)OC2,91.9 µM
COc1cc(/C=C2/C(=O)N(C(=O)c3ccc(Cl)cc3)N=C2C)cc(OC)c1OC,>14 µM
Cc1cc(S(=O)(=O)/N=C(/NN)NNc2cccc(C(F)(F)F)n2)c(S)cc1Cl,54 µM
Cc1cn([C@H]2C[C@H](N=[N+]=[N-])[C@@H](CN3C(=O)c4c(Cl)c(Cl)c(Cl)c(Cl)c4C3=O)O2)c(=O)[nH]c1=O,>80 µM
Cc1cn([C@H]2C=C[C@@H](CO)O2)c(=O)[nH]c1=O,29 µM
C=C(COCP(=O)(O)O)C(C)n1ccc(N)nc1=O,>100 µM
N#C/C(=C\c1ccc(O)c(O)c1)C(=O)NCCCCNC(=O)/C(C#N)=C/c1ccc(O)c(O)c1,28.6 µM
Cc1cc(S(=O)(=O)Nc2nc(N)nc(N3CCCCC3)n2)c(S)cc1Cl,>200 µM
Nc1nc(N)c(C=O)c(OCCOCP(=O)(O)O)n1,≥300 µM
COc1ccc(C2C(Cl)C(=O)N2NC(=O)c2ccccc2O)cc1,>144 µM
Nc1ccn([C@@H]2O[C@H](CO)C[C@@H]2F)c(=O)n1,61.9 µg/mL
Cc1cccc2c1OP(=O)(OC[C@@H]1C=C[C@H](n3cnc4c(NC5CC5)nc(N)nc43)C1)OC2,103 µM
Cc1cc(S(=O)(=O)Nc2nc(N)nc(N(C)C)n2)c(SCC(=O)O)cc1Cl,>200 µM
CCc1cc(NCc2nc3c(C)ccc(C)c3o2)c(=O)[nH]c1C,>60 µM
CCOC(=O)/C=C/C1=C(N)C2(OS1(=O)=O)[C@@H](CO[Si](C)(C)C(C)(C)C)O[C@@H](n1cc(C)c(=O)[nH]c1=O)[C@@H]2O[Si](C)(C)C(C)(C)C,174 µM
CC1=NN(C(=O)c2ccccc2O)C(=O)/C1=C/c1ccc([N+](=O)[O-])cc1,0.091 µM
N#C/C(=C\c1ccc(O)c(O)c1)C(=O)NCc1cccc(CNC(=O)/C(C#N)=C/c2ccc(O)c(O)c2)c1,10.6 µM
CN=C1N(C)C(=O)OC12[C@@H](CO[Si](C)(C)C(C)(C)C)O[C@@H](n1cc(C)c(=O)n(C)c1=O)[C@@H]2O[Si](C)(C)C(C)(C)C,≥175 µM
CCOCn1c([Se]c2ccccc2)c(CC)c(=O)[nH]c1=O,>100 µM
O=c1[nH]c(=O)n([C@H]2C[C@H](F)[C@@H](CO)O2)cc1I,>500 µM
CCOC(=O)CCc1ccccc1O[P@@](=O)(N[C@@H](C)C(=O)OCC)OC[C@H]1O[C@@H](n2cnc3c(N)nc(N)nc32)[C@](C)(O)[C@@H]1O,>100 µM
COc1cccc(Nc2nc(NS(=O)(=O)c3cc(C)c(Cl)cc3S)n[nH]2)c1,185 µM
Cc1cccc2c1OP(=O)(OCCOCn1cnc3c(=O)[nH]c(N)nc31)OC2,108 µM

A second listing of 5 rows from above:

structure,value
CCc1cc(NCc2nc3c(C)ccc(C)c3o2)c(=O)[nH]c1C,>60 µM
C=C(COCP(=O)(O)O)Cn1cnc2c(=O)[nH]c(N)nc21,≥250 µM
CCOC(=O)CCc1ccccc1O[P@@](=O)(N[C@@H](C)C(=O)OC(C)C)OC[C@H]1O[C@@H](n2cnc3c(N)nc(N)nc32)[C@](C)(O)[C@@H]1O,>100 µM
CCCCCCCCCC(=O)NCC(COP(=O)([O-])OCC[N+](C)(C)C)OCCCCCCCC,>100 µM
Nc1ncn([C@H]2C[C@H](O)[C@@H](CO)O2)c(=O)n1,>1 µM